Results on seven compounds are retold here after patent US7030150B2, “Benzimidazole compounds and antiviral uses thereof” (Trimeris, Inc., priority 2001, dated 2006).

For this data set, the system named is RSV. The experiment in a line: RSV plaque reduction (PRA) / syncytia formation antiviral assay in Hep2 cells. The data set is classed as cell-based, Respiratory Syncytial Virus. To be noted: ratio CC50/IC50, Tables 1-7.

`c1ccc2c(NCc3nc4ccccc4n3Cc3nc4ccccc4[nH]3)cccc2c1` [compound 180]: the “Selective Index” value turned out to be 35.
The same measure for `Fc1ccc(F)c(CNCc2nc3ccccc3n2Cc2nc3ccccc3[nH]2)c1` [compound 114]: 667.
Turning to `Clc1ccc(CNCc2nc3ccccc3n2Cc2nc3ccccc3[nH]2)cc1Cl` [compound 138], the “Selective Index” value is 7.
With `CC(C)N(Cc1nc2ccccc2n1Cc1cccc(Oc2ccccc2)c1)C1CCCCC1` [compound 12], the “Selective Index” value is 51.
Regarding `COc1ccc(CCNCc2nc3ccccc3n2Cc2nc3ccccc3[nH]2)cc1` [compound 120], the “Selective Index” value was determined as 161.
Under `C=CCN(C)Cc1nc2ccccc2n1Cc1nc2ccccc2[nH]1` [compound 83] stands 305.3; under `c1ccc2[nH]c(Cn3c(CN4CCC(C5CCNCC5)CC4)nc4ccccc43)nc2c1` [compound 217], 14.1.
